Pooled drug test results. Numbers come from NIAID ChemDB, via PubChem.

Common to all: tests in culture; organism: Herpes simplex virus 1; cells: VERO; measure: EC50

An empty or dashed field is not shown. Lines come from different laboratories, so protocols vary. ECn: concentration that inhibits the pathogen or its effect by n%.

compound | strain or isolate | read by | result
O=c1c(O)c(-c2ccc(O)cc2)oc2cc(O)cc(O)c12 |  |  | 2 µg/mL
Cc1ccccc1-n1c(O)c(N=O)c(=O)[nH]c1=S | Leningrad/248/88 | cytopathic effect | 100 µg/mL
C[C@H](N)C(=O)O[C@H]1C[C@H](n2cc(/C=C/Br)c(=O)[nH]c2=O)O[C@@H]1COP1(=O)OCc2ccccc2O1 | KUPKA (TK+) | plaque count | 0.18 µg/mL
COC(=O)c1cn([C@@H]2C[C@H](CO)C[C@H]2O)nn1 | F | plaque count | >100 µM
C[C@@H](N)C(=O)O[C@H]1C[C@H](n2cc(/C=C/Br)c(=O)[nH]c2=O)O[C@@H]1COP1(=O)OCc2ccccc2O1 | B2006 (TK-) | plaque count | >128 µg/mL
Nc1nc(=O)n([C@H]2O[C@@H](CO)C[C@H]2F)cc1I |  |  | >100 µM
COc1ccc(-c2c(C#N)c(NC(=S)Nc3ccccc3)nc3[nH]c(=O)[nH]c(=O)c23)cc1OC |  | plaque count | 20 µg/mL
CC(=O)O[C@H]1CC[C@@]2(C)C(=CC[C@@H]3[C@@H]2CC[C@@]2(C)[C@H]3CCC23OCCO3)C1 |  | virus yield | 481 µM
N#Cc1c(N)nc2[nH]c(=O)[nH]c(=O)c2c1-c1ccc(Br)cc1 |  | plaque count | 40 µg/mL
CC1=C(C)C(CO)(CO)C[C@H]1n1cnc2c(N)ncnc21 |  | cytopathic effect | >100 µg/mL
C[C@]12CCC3C(CC[C@H]4C[C@@H](O)CC[C@]34C)C1[C@H](O)CC2=O |  | virus yield | 225 µM
O=Nc1c(O)n(CCc2ccc(F)cc2)c(=O)[nH]c1=O | Leningrad/248/88 | cytopathic effect | >100 µg/mL
NC(=O)c1nc(F)c[nH]c1=O |  | plaque count | >100 µg/mL
O=Nc1c(O)n(Cc2ccccc2)c(=O)[nH]c1=O | Leningrad/248/88 | cytopathic effect | >100 µg/mL
CCc1cn([C@H]2C[C@H](O)[C@@H](COP(=O)(O)C(N)=O)S2)c(=O)[nH]c1=O | L2/R acyclovir-resistant | cytopathic effect | 52.8 µM
Cc1cccc2c1OP(=O)(OC[C@H]1O[C@@H](n3cc(/C=C/Br)c(=O)[nH]c3=O)C[C@@H]1OC(=O)[C@H](N)Cc1ccccc1)OC2 | KUPKA (TK+) | plaque count | 1.09 µg/mL
CC(C)(C)C(=O)OCOP(=O)(COCCn1cnc2c(N)ncnc21)OCOC(=O)C(C)(C)C | KOS | plaque count | 1.7 µM
O=c1[nH]c(=O)n(C2OC(CO)CC2F)cc1I |  |  | >100 µM
CC(=O)O[C@H]1CC[C@]2(C)C3CC[C@@]4(C)C(C[C@@H](Br)C45OCCO5)C3CC[C@H]2C1 |  | virus yield | 42.4 µM
O=c1c(O)c(-c2ccccc2)oc2cc(O)cc(O)c12 | TK- |  | >15 µg/mL
C[C@]12CCC3C(CC[C@H]4C[C@@H](O)CC[C@]34C)C1C[C@@H](Br)C21OCCO1 |  | virus yield | 472 µM
O=c1[nH]c(=O)n([C@H]2C[C@H](O)[C@@H](COP3(=O)OCc4cc5ccccc5cc4O3)O2)cc1/C=C/Br | B2006 (TK-) | plaque count | >128 µg/mL
Cc1cn([C@H]2C[C@H](N=[N+]=[N-])[C@@H](CO)O2)c(=O)[nH]c1=O | F | plaque count | >10 µM
C=C(/C=C/P(=O)(O)O)Cn1cnc2c(=O)[nH]c(N)nc21 | HF | cytopathic effect | 119 µM
Cc1ccccc1-n1c(O)c(N=O)c(=O)[nH]c1=O | Leningrad/248/88 | cytopathic effect | >100 µg/mL
CC1=C(C)C(CO)(CO)C[C@H]1n1ccc(N)nc1=O |  | cytopathic effect | >100 µg/mL
Nc1ccn([C@@H]2CS[C@H](CO)O2)c(=O)n1 | F | plaque count | >100 µM
O=C(O)P(=O)(O)O | KOS | cytopathic effect | 38 µg/mL
O=c1[nH]c(=O)n([C@@H]2O[C@@H](CO)C[C@H]2F)cc1Br |  |  | >100 µM
Cc1cccc2c1OP(=O)(OC[C@H]1O[C@@H](n3cc(/C=C/Br)c(=O)[nH]c3=O)C[C@@H]1OC(=O)[C@@H]1CCCN1)OC2 | B2006 (TK-) | plaque count | >128 µg/mL
N#Cc1c(N)nc2[nH]c(=O)[nH]c(=O)c2c1-c1cccc([N+](=O)[O-])c1 |  | plaque count | 50 µg/mL
CC(=O)O[C@H]1CC[C@]2(C)C3CC[C@@]4(C)C(CCC45OCCO5)C3CC[C@H]2C1 |  | virus yield | 77.6 µM
Nc1c2c(-c3ccc(Br)cc3)c3c(=O)[nH]c(=O)[nH]c3nc2nc(=O)n1-c1ccccc1 |  | plaque count | 30 µg/mL
Nc1ncnc2c1ncn2C[C@@H](CO)OCP(=O)(O)O | KOS | cytopathic effect | 8.13 µg/mL
CC(=O)O[C@H]1CC[C@@]2(C)C(=CC[C@@H]3[C@@H]2CC[C@]2(C)C(=O)CC[C@@H]32)C1 |  | virus yield | 176 µM
NC1=NC2C(C=CN2CC(CO)CCO)C(=O)N1 | KOS | cytopathic effect | >10 µg/mL
COc1ccc(-c2c(C#N)c(NC(=S)Nc3ccccc3)nc3[nH]c(=O)[nH]c(=O)c23)c(OC)c1 |  | plaque count | 12 µg/mL
N/C(=N/O)c1cn([C@@H]2O[C@H](CO)[C@@H](O)[C@@H]2O)c2ncnc(N)c12 | KOS | plaque count | 80 µM
COc1ccc(-c2c(C#N)c(NC(=O)Nc3ccccc3)nc3[nH]c(=O)[nH]c(=O)c23)c(OC)c1 |  | plaque count | 4 µg/mL
O=c1[nH]cnc2c1ncn2[C@@H]1O[C@@H](CO)C[C@@H]1F |  |  | >100 µM
COC(=O)c1cn([C@@H]2C[C@H](CCP(=O)(O)O)C[C@H]2O)nn1 | F | plaque count | >100 µM
Nc1nc2c(ncn2CCC(CO)CO)c(=O)[nH]1 | KOS | cytopathic effect | >100 µg/mL
Cc1cccc2c1OP(=O)(OC[C@H]1O[C@@H](n3cc(/C=C/Br)c(=O)[nH]c3=O)C[C@@H]1OC(=O)[C@H](N)C(C)C)OC2 | B2006 (TK-) | plaque count | >128 µg/mL
Nc1nc(=O)n([C@H]2O[C@@H](CO)C[C@H]2F)cc1Cl |  |  | >100 µM
C[C@]12CCC3C(CC[C@H]4C[C@@H](O)CC[C@]34C)C1[C@@H](O)CC2=O |  | virus yield | 118 µM
NC(=O)c1cn([C@@H]2C[C@H](CO)C[C@H]2O)nn1 | F | plaque count | >100 µM
C[C@]12CCC3C(CC[C@H]4C[C@@H](O)CC[C@]34C)C1C[C@@H](O)C2=O |  | virus yield | 117 µM
N=C(N)c1cn([C@H]2C[C@H](O)[C@@H](CO)O2)c2ncnc(N)c12 | KOS | plaque count | 6 µM
Cc1cccc2c1OP(=O)(OC[C@H]1O[C@@H](n3cc(/C=C/Br)c(=O)[nH]c3=O)C[C@@H]1OC(=O)[C@H](N)CC(C)C)OC2 | KUPKA (TK+) | plaque count | 0.32 µg/mL
CC(=O)O[C@H]1CC[C@]2(C)C3CC[C@]4(C)C(=O)CCC4C3CC[C@H]2C1 |  | virus yield | 292 µM

7 of the rows above, restated:

compound,strain or isolate,read by,result
Nc1nc(=O)n([C@H]2O[C@@H](CO)C[C@H]2F)cc1I,,,>100 µM
O=c1[nH]cnc2c1ncn2[C@@H]1O[C@@H](CO)C[C@@H]1F,,,>100 µM
Nc1nc2c(ncn2CCC(CO)CO)c(=O)[nH]1,KOS,cytopathic effect,>100 µg/mL
COC(=O)c1cn([C@@H]2C[C@H](CCP(=O)(O)O)C[C@H]2O)nn1,F,plaque count,>100 µM
Cc1ccccc1-n1c(O)c(N=O)c(=O)[nH]c1=S,Leningrad/248/88,cytopathic effect,100 µg/mL
Cc1cn([C@H]2C[C@H](N=[N+]=[N-])[C@@H](CO)O2)c(=O)[nH]c1=O,F,plaque count,>10 µM
O=c1c(O)c(-c2ccccc2)oc2cc(O)cc(O)c12,TK-,,>15 µg/mL